Values quoted from earlier work, collected in paper PMC4621754, “Parasitic diarrheal disease: drug development and targets” (Frontiers in Microbiology, 2015).

Test system: E. intestinalis
Settings: in water, as disinfectant; ref John et al., 2005

Substance: chlorine
- killing of E. intestinalis: kills
